Target: the molecule itself
Assay: cross-linking

B1: M1-V97K (full-length PR8 M1 with V97K) (natural protein)
chain: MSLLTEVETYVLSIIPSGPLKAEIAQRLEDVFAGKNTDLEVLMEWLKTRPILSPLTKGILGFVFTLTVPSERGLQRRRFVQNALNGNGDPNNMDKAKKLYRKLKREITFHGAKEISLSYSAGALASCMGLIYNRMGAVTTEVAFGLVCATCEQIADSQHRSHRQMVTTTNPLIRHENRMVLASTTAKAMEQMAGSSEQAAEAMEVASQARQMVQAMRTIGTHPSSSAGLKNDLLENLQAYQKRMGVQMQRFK
binding result: binds
